{
  "source": "patent US4649911A",
  "about": "“Small particle aerosol generator for treatment of respiratory disease including the lungs” (Baylor College of Medicine, priority 1986, dated 1987)",
  "conditions": "human, in vivo",
  "data": [
    {"compound": "NC(=O)c1ncn([C@@H]2O[C@H](CO)[C@@H](O)[C@H]2O)n1", "note": "[ribavirin]", "values": [
      {"measurement": "clinical tolerance", "value": "nausea and vomited several times"}
    ]}
  ]
}
